Results: PMC12319226 (Frontiers in Bioinformatics, 2025)
Substitutions are numbered along the chain they refer to.

Assays:
Assay in all cases: BLI
Details in all cases: both partners purified
[1] = biological target: T1, fHbp mutant 0014 (Neisseria meningitidis, fHbp v1.1 mutant, point mutant)
T1 chain: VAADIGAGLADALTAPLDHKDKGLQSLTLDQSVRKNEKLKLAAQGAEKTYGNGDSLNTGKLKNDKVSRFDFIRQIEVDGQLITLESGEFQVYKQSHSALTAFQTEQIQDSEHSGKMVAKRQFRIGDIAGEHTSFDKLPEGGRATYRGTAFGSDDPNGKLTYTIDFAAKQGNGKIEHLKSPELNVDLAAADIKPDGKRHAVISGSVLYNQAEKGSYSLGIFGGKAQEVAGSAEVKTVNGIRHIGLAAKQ

[2] = biological target: T2, fHbp mutant 0012 (Neisseria meningitidis, fHbp v1.1 mutant, point mutant)
T2 chain: T1 chain with I72V, Q74K, P155A, N156G

[3] = biological target: T3, fHbp mutant 0017 (Neisseria meningitidis, fHbp v1.1 mutant, point mutant)
T3 chain: T1 chain with K38T, K40T, A42S, I72V, Q74K, M116L, A118N

[4] = biological target: T4, fHbp mutant 0018 (Neisseria meningitidis, fHbp v1.1 mutant, point mutant)
T4 chain: T1 chain with K38T, K40T, A42S, I72V, Q74K, Q106K

[5] = biological target: T5, fHbp m000019 (Neisseria meningitidis, fHbp v1.1 …, point mutant)
T5 chain: T1 chain with K38T, K40T, A42S, I72V, Q74K, Q106K, M116L, A118N, P155A, N156G

B1: mAb JAR5 (mouse) (antibody, V domains shown)
VH: QVQMQQPGAELVKPGASVKLSCKASGYTFISYWMHWVKQRPGRGLEWIGRIAPDTGIIYYNEKFKNKATLTVDTPSSTAYMQLNSLTSEDSAVYYCARYLKYDGSTYRFDYWGQGTTLTVSS
VL: DIVMTQAAPSVPVTPGESVSISCRSSKSLLHSNGNTYLFWFLQRPGQSPQLLIYRMSNLASGVPDRFSGSGSGTSFTLRISRVEAEDVGVYYCMQHLEYPYTFGGGTKLEIK
notes: source: Expi293, purified (MabSelect SuRe, SEC); copies: 2 + 2
- kon [1]: 1.322e+06 ± 6980 M⁻¹ s⁻¹
- koff [2]: 0.000654 s⁻¹
- kon [2]: 1.564e+06 ± 7740 M⁻¹ s⁻¹
- koff [3]: 2e-05 s⁻¹
- koff [4]: 0.000278 s⁻¹
- koff [5]: 0.000238 s⁻¹
